{
  "sequences": {"note": "By UniProt entry, the sequences of proteins in these tests, tags left out.", "UniProt P69996, whole entry": "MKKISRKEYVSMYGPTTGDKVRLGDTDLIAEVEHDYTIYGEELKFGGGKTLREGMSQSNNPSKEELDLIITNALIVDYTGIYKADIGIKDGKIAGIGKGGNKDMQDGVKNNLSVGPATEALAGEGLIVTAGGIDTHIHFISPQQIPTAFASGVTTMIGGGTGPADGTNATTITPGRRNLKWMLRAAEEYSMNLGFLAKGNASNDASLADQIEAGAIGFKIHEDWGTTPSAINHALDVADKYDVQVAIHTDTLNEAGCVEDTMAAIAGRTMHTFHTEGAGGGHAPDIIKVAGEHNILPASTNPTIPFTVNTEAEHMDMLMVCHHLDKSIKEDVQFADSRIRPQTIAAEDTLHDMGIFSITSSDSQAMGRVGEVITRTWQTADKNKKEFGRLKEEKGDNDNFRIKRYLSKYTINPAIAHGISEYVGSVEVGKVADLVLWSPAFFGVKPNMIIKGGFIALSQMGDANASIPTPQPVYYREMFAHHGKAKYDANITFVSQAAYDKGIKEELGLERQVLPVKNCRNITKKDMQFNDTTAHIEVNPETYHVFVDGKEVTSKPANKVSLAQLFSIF", "UniProt P14916, whole entry partner": "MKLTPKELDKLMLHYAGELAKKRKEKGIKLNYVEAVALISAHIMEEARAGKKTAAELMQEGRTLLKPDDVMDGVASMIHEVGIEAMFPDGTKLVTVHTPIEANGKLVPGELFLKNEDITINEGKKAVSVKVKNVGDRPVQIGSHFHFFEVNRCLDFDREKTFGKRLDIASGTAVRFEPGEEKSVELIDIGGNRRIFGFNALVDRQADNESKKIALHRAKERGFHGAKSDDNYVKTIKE"},
  "source": "patent US6709851B1",
  "about": "“Stabilization of helicobacter urease” (OraVax-Merieux Co., priority 1997, dated 2004)",
  "molecular_target": "in vitro activated urease (Helicobacter pylori, UniProt P69996)",
  "assay": "Inactivation of in vitro activated urease, phenol broth assay",
  "format": "biochemical",
  "details": "5 mM TNBSA",
  "note": "Some compounds may have been tested in ways that are not shown here.",
  "data": [
    {"substance": "trinitrobenzene sulfonic acid", "values": [
      {"measurement": "effect of TNBSA on in vitro activated urease activity", "value": "did not inactivate the enzymatic activity"}
    ]}
  ]
}
